PubChem BioAssay AID624099, ICCB-Longwood | 2012
Shown is one part, drawn at random, of about 21,000 reagents. 497 of them (2.4%) were called active. 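Higher z means weaker E2 silencing; only reporter increases were scored, and knock-downs that hurt cell survival may mask genuine repressor factors.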 Reagent sequences are not shown.

Aim: 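Host factors E2 relies on to silence an HPV18 LCR reporter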 (primary screen)
Cells: human C33A cervical carcinoma cells (HPV-negative) stably expressing BPV1 E2 and an HPV18 LCR luciferase reporter
Reagent: siRNA pool against human genes, 40 nM
Time to read-out: 72 h
Measurement: 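Per-well luciferase luminescence, z-scored on each plate against the plate mean and SD with control wells left out, then averaged across three replicate plates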
Scale: mean z-score and z-score: higher = stronger reporter signal, weaker E2 silencing
Rule for the call: 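Mean z ≥ 2 together with z ≥ 2 in two or more of the three replicates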

GAPDHP24 (GeneID 391162) | mean z-score: 0.92; z-score, replicate A: 0.81; z-score, replicate B: 0.98; z-score, replicate C: 0.98; call: inactive
KRT6B (GeneID 3854) | mean z-score: 1.14; z-score, replicate A: 1.01; z-score, replicate B: 1.11; z-score, replicate C: 1.31; call: inactive
HAUS1 (GeneID 115106) | mean z-score: -0.57; z-score, replicate A: -0.38; z-score, replicate B: -0.34; z-score, replicate C: -1; call: inactive
IMPDH2 (GeneID 3615) | mean z-score: 0.5; z-score, replicate A: 1.19; z-score, replicate B: 0.22; z-score, replicate C: 0.11; call: inactive
TMEM63A (GeneID 9725) | mean z-score: 0.85; z-score, replicate A: 0.83; z-score, replicate B: 0.66; z-score, replicate C: 1.06; call: inactive
TRIM47 (GeneID 91107) | mean z-score: 1.13; z-score, replicate A: 0.9; z-score, replicate B: 1.02; z-score, replicate C: 1.46; call: inactive
SMLR1 (GeneID 100507203) | mean z-score: -0.53; z-score, replicate A: -0.51; z-score, replicate B: -0.55; z-score, replicate C: -0.52; call: inactive
KCNE1 (GeneID 3753) | mean z-score: -0.72; z-score, replicate A: -0.64; z-score, replicate B: -0.63; z-score, replicate C: -0.88; call: inactive
PPAT (GeneID 5471) | mean z-score: -0.56; z-score, replicate A: -0.51; z-score, replicate B: -0.77; z-score, replicate C: -0.41; call: inactive
ADGRG7 (GeneID 84873) | mean z-score: 0.46; z-score, replicate A: 1; z-score, replicate B: 0.17; z-score, replicate C: 0.2; call: inactive
GRAP2 (GeneID 9402) | mean z-score: -0.14; z-score, replicate A: -0.08; z-score, replicate B: -0.08; z-score, replicate C: -0.26; call: inactive

Records listed so far whose target name starts with T or t:
TMEM63A (GeneID 9725) | mean z-score: 0.85; z-score, replicate A: 0.83; z-score, replicate B: 0.66; z-score, replicate C: 1.06; call: inactive
TRIM47 (GeneID 91107) | mean z-score: 1.13; z-score, replicate A: 0.9; z-score, replicate B: 1.02; z-score, replicate C: 1.46; call: inactive

Additional entries follow.
APBB3 (GeneID 10307) | mean z-score: 0.36; z-score, replicate A: 0.23; z-score, replicate B: 0.37; z-score, replicate C: 0.5; call: inactive
NUP43 (GeneID 348995) | mean z-score: -1.74; z-score, replicate A: -1.79; z-score, replicate B: -1.59; z-score, replicate C: -1.85; call: inactive
ZC3H4 (GeneID 23211) | mean z-score: 0.23; z-score, replicate A: 0.82; z-score, replicate B: -0.11; z-score, replicate C: -0.01; call: inactive
BRD9 (GeneID 65980) | mean z-score: -2.67; z-score, replicate A: -2.93; z-score, replicate B: -2.52; z-score, replicate C: -2.55; call: inactive
RPS17 (GeneID 6218) | mean z-score: -1.55; z-score, replicate A: -1.57; z-score, replicate B: -1.5; z-score, replicate C: -1.57; call: inactive
SCN4B (GeneID 6330) | mean z-score: 0.47; z-score, replicate A: 0.12; z-score, replicate B: 0.54; z-score, replicate C: 0.76; call: inactive
TMC8 (GeneID 147138) | mean z-score: -0.98; z-score, replicate A: -1.04; z-score, replicate B: -0.81; z-score, replicate C: -1.09; call: inactive
ZNF672 (GeneID 79894) | mean z-score: -0.4; z-score, replicate A: -0.28; z-score, replicate B: -0.61; z-score, replicate C: -0.3; call: inactive
NPR2 (GeneID 4882) | mean z-score: -0.12; z-score, replicate A: -0.04; z-score, replicate B: 0.16; z-score, replicate C: -0.47; call: inactive
SMYD5 (GeneID 10322) | mean z-score: -0.42; z-score, replicate A: -0.68; z-score, replicate B: -0.36; z-score, replicate C: -0.23; call: inactive
MIEF2 (GeneID 125170) | mean z-score: -1.16; z-score, replicate A: -0.86; z-score, replicate B: -1.37; z-score, replicate C: -1.26; call: inactive
LOC390533 (retired record) (GeneID 390533) | mean z-score: -0.38; z-score, replicate A: -0.53; z-score, replicate B: -0.34; z-score, replicate C: -0.28; call: inactive
NUMBL (GeneID 9253) | mean z-score: -0.2; z-score, replicate A: -0.06; z-score, replicate B: -0.2; z-score, replicate C: -0.33; call: inactive
DNAJC27-AS1 (GeneID 729723) | mean z-score: -1.1; z-score, replicate A: -0.9; z-score, replicate B: -1.27; z-score, replicate C: -1.13; call: inactive
GMEB1 (GeneID 10691) | mean z-score: 0.81; z-score, replicate A: 0.98; z-score, replicate B: 0.48; z-score, replicate C: 0.97; call: inactive
RPLP0 (GeneID 6175) | mean z-score: -1.81; z-score, replicate A: -1.86; z-score, replicate B: -1.72; z-score, replicate C: -1.85; call: inactive
